Data published in paper PMC5892559, “Structural basis for the glycosyltransferase activity of the Salmonella effector SseK3” (2018).

By UniProt entry, the sequences of proteins in these tests, tags left out. Residues count along the entry.
UniProt P0DUJ7, 14-335 limits assumed: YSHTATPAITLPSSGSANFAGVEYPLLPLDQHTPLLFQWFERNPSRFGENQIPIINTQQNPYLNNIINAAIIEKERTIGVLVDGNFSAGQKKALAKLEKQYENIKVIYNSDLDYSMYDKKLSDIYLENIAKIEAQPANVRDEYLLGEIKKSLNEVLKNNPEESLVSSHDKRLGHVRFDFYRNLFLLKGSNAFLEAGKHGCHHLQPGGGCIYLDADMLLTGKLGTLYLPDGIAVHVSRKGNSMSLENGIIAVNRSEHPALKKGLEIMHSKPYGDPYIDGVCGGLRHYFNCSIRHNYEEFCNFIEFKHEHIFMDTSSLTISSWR

Target: SseK3(14–335) (Salmonella enterica, UniProt P0DUJ7)
Experiment: X-ray crystal structure
Conditions: co-crystallised with UDP-GlcNAc and 5 mM MnCl2, ligand hydrolysed in crystal; Mn2+; active site

SMILES | X-ray crystal structure
O=c1ccn([C@@H]2O[C@H](COP(=O)(O)OP(=O)(O)O)[C@@H](O)[C@H]2O)c(=O)[nH]1 | the ligand is hydrolyzed with the UDP and N-acetyl α-D-glucosamine still present in the active site
CC(=O)N[C@H]1C(O)O[C@H](CO)[C@@H](O)[C@@H]1O (some centres unmarked) | the ligand is hydrolyzed with the UDP and N-acetyl α-D-glucosamine still present in the active site
